Measured values from several laboratories, pooled; numbers as filed in NIAID ChemDB.

Shared fields: whole-cell or culture tests; species: Human cytomegalovirus; cells: HFF; measure: EC50

An empty or dashed field is not shown. Conditions beyond the fields shown may differ between rows. ECn is the concentration giving n% inhibition of infection, replication or growth.

smiles | strain or isolate | method | value
Nc1nc2c(ncn2[C@H]2C[C@]23C[C@@H]3CO)c(=O)[nH]1 | TOWNE | plaque count | >100 µM
N#Cc1cn([C@@H]2O[C@H](CO)C[C@H]2O)c2ncnc(N)c12 | - | plaque count | 0.6 µM
Cc1cc(C)c(Nc2cc(S(=O)(=O)O)c(N)c3c2C(=O)c2ccccc2C3=O)c(C)c1 | EC | plaque count | 15 µM
COC(=O)[C@H](C)NP(=O)(OC[C@@H]1C[C@]12C[C@@H]2n1cnc2c(N)ncnc21)Oc1ccccc1 | TOWNE | plaque count | 0.38 µM
Nc1nc2c(ncn2/C=C2/C[C@@H]2CO)c(=O)[nH]1 | AD169 | plaque count | 2.6 µM
COC(=O)[C@H](C)NP(=O)(OC[C@H]1C/C1=C\n1cnc2c(N)nc(N)nc21)Oc1ccccc1 | TOWNE | plaque count | >100 µM
Nc1nc2c(ncn2COC(CO)CO)c(=O)[nH]1 | TOWNE | virus yield | <1.8 µM
O=C(NCCc1c[nH]c2ccccc12)C1=Cc2ccncc2CC1 | D-10 C4 | plaque count | 0.6 µM
Nc1ncnc2c1ccn2[C@H]1C[C@H](O)[C@@H](CO)O1 | - | plaque count | 130 µM
CC(=O)Oc1ccc([C@@H]2CC(=O)c3c(cc(OC(C)=O)c(-c4c(OC(C)=O)cc5c(c4OC(C)=O)C(=O)C[C@@H](c4ccc(OC(C)=O)cc4)O5)c3OC(C)=O)O2)cc1 | AD169 | cytopathic effect | >4 µg/mL
Cn1cnc2nc(NCCO)nc(NCc3ccccc3)c21 | TOWNE | plaque count | >100 µM
Nc1ncnc2c1ncn2[C@@H]1CC(F)(F)[C@@H](O)[C@H]1O | - | plaque count | 6.2 µM
Nc1nc2c(ncn2COC(CO)CO)c(=O)[nH]1 | TOWNE | cytopathic effect | 3.4 µM
CCCNC(=O)c1cn([C@@H]2O[C@H](COP(=O)(O)O)[C@@H](O)[C@H]2O)c(=O)nc1N | - | - | 0.03 µg/mL
N#Cc1cn([C@@H]2O[C@H](CO)[C@@H](O)[C@@H]2O)c2ncnc(N)c12 | TOWNE | virus yield | <14 µM
Nc1ncnc2c1c(Cl)cn2[C@@H]1O[C@H](CO)[C@@H](O)[C@H]1O | - | plaque count | 4 µM
Nc1nc(NC2CC2)c2ncn(/C=C3/C[C@@H]3CO)c2n1 | AD169 | plaque count | 1.9 µM
C=C1[C@H](CO)[C@@H](O)C[C@@H]1n1cnc2c(=O)[nH]c(N)nc21 | AD169 | - | 15 µM
C[C@@]12COCO[C@@H]1CC[C@@]1(C)[C@H]2CC[C@H]2C[C@@H]3CC21CCC31COCO1 | - | plaque count | >500 µM
O=C(O)CN(CC(=O)O)Cc1cc2c(c(O)c1O)C(=O)c1ccccc1C2=O | AD169 | cytopathic effect | >100 µM
N#Cc1c(Br)n(COC(CO)CO)c2ncnc(N)c12 | - | plaque count | >100 µM
Nc1nc2c(ncn2[C@H]2C[C@@]23C[C@@H]3CO)c(=O)[nH]1 | TOWNE | plaque count | >100 µM
NC(=O)c1cn([C@@H]2O[C@H](CO)[C@@H](O)[C@H]2O)c2ncnc(N)c12 | - | plaque count | 0.03 µM
Nc1nc(NC2CC2)c2ncn(C=C3CC3CO)c2n1 | TOWNE | plaque count | 0.4 µM
CC(C)Nc1nc2nc3cc(Cl)c(Cl)cc3nc2n1C1OC(CO)C(O)C1O | TOWNE | plaque count | 32 µM
NC(=O)c1cn([C@@H]2O[C@H](CO)[C@@H](O)[C@H]2O)c2ncnc(N)c12 | TOWNE | plaque count | 0.03 µM
Nc1ncnc2c1ccn2[C@@H]1O[C@H](CO)[C@@H](O)[C@@H]1O | - | plaque count | 155 µM
N#Cc1cn([C@@H]2O[C@H](CO)[C@@H](O)[C@@H]2O)c2ncnc(N)c12 | TOWNE | plaque count | 1.7 µM
NC(=O)c1c(N)n(COCCO)c2ncnc(N)c12 | - | plaque count | >100 µM
CC1(C)OC[C@]2(C)[C@@H](CC[C@@]3(C)[C@H]2CC[C@H]2C[C@@H]4CC23CC[C@]4(O)CO)O1 | - | plaque count | >500 µM
NC(=O)c1cn([C@@H]2O[C@H](CO)[C@@H](O)[C@@H]2O)c2ncnc(N)c12 | TOWNE | virus yield | <1 µM
Brc1nc(Br)c(Br)[nH]1 | - | plaque count | 27 µM
N#Cc1cn([C@H]2C[C@H](O)[C@@H](CO)O2)c2ncnc(N)c12 | - | plaque count | 0.4 µM
NC(=O)c1c(N)n([C@@H]2O[C@H](CO)[C@@H](O)[C@H]2O)c2ncnc(N)c12 | - | plaque count | 3 µM
CC1(C)OC[C@]2(C)[C@@H](CC[C@@]3(C)[C@H]2CC[C@H]2C[C@@H]4CC23CC[C@@]4(C)O)O1 | - | plaque count | >500 µM
Nc1ncnc2c1ncn2[C@@H]1C[C@@H](O)[C@H](CO)O1 | - | - | >100 µM
COC(=O)[C@H](C)NP(=O)(OC[C@H]1C/C1=C/n1cnc2c(=O)[nH]c(N)nc21)Oc1ccccc1 | TOWNE | plaque count | 4.2 µM
Nc1ncnc2c1c(Br)cn2[C@H]1C[C@H](O)[C@@H](CO)O1 | - | plaque count | 6 µM
C[C@H]1CCC/C=C/[C@@H]2C[C@H](O)C[C@H]2[C@@H](O)/C=C/C(=O)O1 | AD169 | plaque count | 0.019 µM
COC(=O)C(C)NP(=O)(OC[C@H]1C/C1=C/n1cnc2c(N)nc(N)nc21)Oc1ccccc1 | TOWNE | plaque count | 3 µM
Nc1nc2c(ncn2[C@H]2C[C@@]23C[C@H]3CO)c(=O)[nH]1 | TOWNE | plaque count | >100 µM
NC(=O)c1cn(COCCO)c2ncnc(N)c12 | - | plaque count | >320 µM
C[C@]1(CO)C2CCC3CC4CC3(CC[C@]4(O)CO)[C@@]2(C)CC[C@H]1O | - | plaque count | >500 µM
NC(=S)c1c(N)n([C@@H]2O[C@H](CO)[C@@H](O)[C@H]2O)c2ncnc(N)c12 | - | plaque count | 0.4 µM
N#Cc1cn([C@@H]2O[C@H](CO)[C@@H](O)[C@@H]2Br)c2ncnc(N)c12 | TOWNE | virus yield | <90 µM
Nc1nc2c(ncn2/C=C2/C[C@H]2CO)c(=O)[nH]1 | AD169 | plaque count | >429 µM
OC[C@H]1O[C@@H](n2c(Cl)nc3cc(Cl)c(Cl)cc32)[C@H](O)[C@@H]1O | TOWNE | plaque count | 2.9 µM
Cc1cn([C@@H]2C[C@@H](O)[C@H](CO)O2)c(=O)[nH]c1=O | - | - | >100 µM
CC1(C)CCC[C@@]2(C)[C@H]1CC[C@H]1C[C@@H]3CC12CC[C@]3(O)CO | - | plaque count | >500 µM
NC(=O)c1cn([C@@H]2O[C@H](CO)[C@@H](O)[C@@H]2O)c2ncnc(N)c12 | TOWNE | - | 3.6 µM
CC(=O)Nc1ccc(Nc2cc(S(=O)(=O)O)c(N)c3c2C(=O)c2ccccc2C3=O)cc1 | EC | plaque count | 20 µM
Nc1ncnc2c1ccn2[C@@H]1O[C@H](CO)[C@@H](O)[C@@H]1O | TOWNE | plaque count | 160 µM
COc1cc(NC(=O)Nc2cccc(CNC(=O)O[C@H]3CCOC3)c2)ccc1-c1cnco1 | TOWNE | plaque count | 0.8 µM

For reference, 7 entries again:

smiles | strain or isolate | method | value
Nc1nc(NC2CC2)c2ncn(/C=C3/C[C@@H]3CO)c2n1 | AD169 | plaque count | 1.9 µM
CC(=O)Nc1ccc(Nc2cc(S(=O)(=O)O)c(N)c3c2C(=O)c2ccccc2C3=O)cc1 | EC | plaque count | 20 µM
Nc1ncnc2c1ccn2[C@H]1C[C@H](O)[C@@H](CO)O1 | - | plaque count | 130 µM
COc1cc(NC(=O)Nc2cccc(CNC(=O)O[C@H]3CCOC3)c2)ccc1-c1cnco1 | TOWNE | plaque count | 0.8 µM
Nc1ncnc2c1ccn2[C@@H]1O[C@H](CO)[C@@H](O)[C@@H]1O | - | plaque count | 155 µM
COC(=O)[C@H](C)NP(=O)(OC[C@H]1C/C1=C\n1cnc2c(N)nc(N)nc21)Oc1ccccc1 | TOWNE | plaque count | >100 µM
C=C1[C@H](CO)[C@@H](O)C[C@@H]1n1cnc2c(=O)[nH]c(N)nc21 | AD169 | - | 15 µM